A mixed list of measured activities; the numbers were collected in NIAID ChemDB.

All rows: target-level tests; species: Pneumocystis carinii

Percent inhibition refers to the dose given; in toxicity tests it is the harm to the cells. An empty or dashed field is not shown. Neighbouring rows are from separate reports. ICn is the concentration giving n% inhibition.

SMILES | read by | read-out | dose | target | result
O=C1C(=O)c2ccccc2C(O)=C1C1CCC(c2ccc(Cl)cc2)CC1 |  | inhibition | 1 µM | Dihydroorotate dehydrogenase | 0.7%
N=C(N)c1ccc2nc(/C=C/c3nc4ccc(C(=N)N)cc4[nH]3)[nH]c2c1 |  | IC50 |  | Topoisomerase I | 3.1 µM
COc1cc(Cc2cnc(N)nc2N)cc2c1OC(C)(C)O2 |  | IC50 |  | DHFR | 13.9 µM
Nc1nc(N)c2nc(CN(CCO)c3ccc(C(=O)NC(CCC(=O)O)C(=O)O)cc3)cnc2n1 |  | IC50 |  | DHFR | 0.00035 µM
COc1cc(Cc2cnc(N)nc2N)cc(OCc2ccccc2)c1OCc1ccccc1 |  | IC50 |  | DHFR | 8.3 µM
CN1CCN(c2ccc3nc(-c4ccc5nc(-c6ccc(O)cc6)[nH]c5c4)[nH]c3c2)CC1 |  | IC50 |  | Topoisomerase I | 12.5 µM
Nc1ccc(S(=O)(=O)Nc2ncccn2)cc1 | HPLC | IC50 |  | Oxidosqualene cyclase | >500 µM
COc1cc(Cc2cnc(N)nc2N)cc(OC)c1OC(C)(C)O |  | IC50 |  | DHFR | 24.8 µM
Nc1nc(N)c(-c2ccc(Cl)cc2)c(COc2ccc([N+](=O)[O-])cc2)n1 |  | IC50 |  | DHFR | 85.1 µM
COc1ncnc(NS(=O)(=O)c2ccc(N)cc2)c1OC | HPLC | Ki |  | Oxidosqualene cyclase | 149 µM
COc1ccc(NS(=O)(=O)c2ccc(N)cc2)nn1 |  | inhibition | 0.05 µM | DHPS | 75%
Nc1ncc(Cc2cc(Cl)c(-n3cccc3)c(Cl)c2)c(N)n1 |  | IC50 |  | DHFR | 10.9 µM
Cc1c(CNc2ccc(C(=O)NC(CC(=O)O)CC(=O)O)cc2)ccc2nc(N)nc(N)c12 |  | IC50 |  | DHFR | 0.00022 µM
CC(=O)NS(=O)(=O)c1ccc(N=Nc2c(O)n(-c3ccccc3)n(-c3ccccc3)c2=O)cc1 |  | IC50 |  | DHPS | >10 µM
NC(=O)c1ccc(NCc2cnc3nc(N)nc(N)c3n2)cc1 |  | IC50 |  | DHFR | 0.153 µM
CCOC(=O)c1c(OCC)cc(Cc2cnc(N)nc2N)cc1OCC |  | IC50 |  | DHFR | 8.3 µM
CC(=O)Nc1ccc(NCc2cnc3nc(N)nc(N)c3n2)cc1 |  | IC50 |  | DHFR | 7.1 µM
N=C(N)c1ccc2nc(CCc3nc4ccc(C(=N)N)cc4[nH]3)[nH]c2c1 |  | IC50 |  | Topoisomerase II | 10 µM
Nc1ccc(S(=O)(=O)Nc2nccs2)cc1 |  | Ki |  | DHPS | 0.0105 µM
CC1(C)N=C(N)N=C(N)N1c1ccc(C(=O)O)cc1 |  | IC50 |  | DHFR | >52 µM
Cc1cc(NS(=O)(=O)c2ccc(N)cc2)no1 |  | Ki |  | DHPS | 0.0075 µM
Nc1nc(N)c(-c2ccc(Cl)cc2)c(C(F)(F)F)n1 |  | IC50 |  | DHFR | >42 µM

2 of the rows above, restated:

{"SMILES": "Nc1ccc(S(=O)(=O)Nc2ncccn2)cc1", "read by": "HPLC", "read-out": "IC50", "target": "Oxidosqualene cyclase", "result": ">500 µM"}
{"SMILES": "COc1ccc(NS(=O)(=O)c2ccc(N)cc2)nn1", "read-out": "inhibition", "dose": "0.05 µM", "target": "DHPS", "result": "75%"}